Measured values: article PMC7459591 (Marine Drugs, 2020)
Values joined by “and” are separate entries in the source; they are usually repeats but may differ in a detail not shown here. Equal values may be shown once. Only a part of the results on these compounds is given; other tests are left out.

Chains of the proteins cited; added tags and fusions are not shown.
UniProt P22001, whole entry: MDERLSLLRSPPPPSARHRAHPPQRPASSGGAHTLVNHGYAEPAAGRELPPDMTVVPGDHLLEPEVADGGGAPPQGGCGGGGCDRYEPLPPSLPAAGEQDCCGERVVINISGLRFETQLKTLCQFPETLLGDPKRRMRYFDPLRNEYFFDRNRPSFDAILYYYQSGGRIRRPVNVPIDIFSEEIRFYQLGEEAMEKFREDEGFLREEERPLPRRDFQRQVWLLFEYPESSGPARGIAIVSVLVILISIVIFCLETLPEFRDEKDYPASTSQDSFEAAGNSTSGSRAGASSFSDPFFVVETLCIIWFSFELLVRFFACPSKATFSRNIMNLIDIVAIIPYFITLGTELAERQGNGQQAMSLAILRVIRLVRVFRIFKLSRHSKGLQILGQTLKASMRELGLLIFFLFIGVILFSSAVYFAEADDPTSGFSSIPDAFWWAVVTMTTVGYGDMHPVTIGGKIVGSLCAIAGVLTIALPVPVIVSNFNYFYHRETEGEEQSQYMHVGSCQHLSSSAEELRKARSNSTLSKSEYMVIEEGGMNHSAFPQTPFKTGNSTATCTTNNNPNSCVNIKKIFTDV
UniProt P17658, whole entry: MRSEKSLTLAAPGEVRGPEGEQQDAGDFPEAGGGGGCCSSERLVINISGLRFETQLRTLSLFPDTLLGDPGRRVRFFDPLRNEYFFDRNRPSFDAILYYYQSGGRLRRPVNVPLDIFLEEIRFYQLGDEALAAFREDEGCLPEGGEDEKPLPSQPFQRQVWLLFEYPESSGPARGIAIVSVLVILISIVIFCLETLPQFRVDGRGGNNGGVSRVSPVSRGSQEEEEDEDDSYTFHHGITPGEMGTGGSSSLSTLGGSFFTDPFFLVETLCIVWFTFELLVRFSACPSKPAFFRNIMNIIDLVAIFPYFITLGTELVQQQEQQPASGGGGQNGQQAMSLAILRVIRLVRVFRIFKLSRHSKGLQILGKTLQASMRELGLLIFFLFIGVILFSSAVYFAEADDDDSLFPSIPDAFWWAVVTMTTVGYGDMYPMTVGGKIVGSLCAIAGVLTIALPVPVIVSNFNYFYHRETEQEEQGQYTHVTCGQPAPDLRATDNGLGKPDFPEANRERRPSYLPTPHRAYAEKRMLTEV

What was measured:
human Kv1.3 channel = human Kv1.3 channel (Homo sapiens, UniProt P22001); assay: Two-electrode voltage clamp of Kv1.3 expressed in Xenopus oocytes
Protocol: (§1) cDNA of the clones for human Kv1.3 to Kv1.6 channels in vector pSGEM, resistant to ampicillin, were linearized with NotI and SpHI. Then, the products were purified using a QIAquick PCR purification Kit according the protocol by Qiagen (Hilden, Germany). cDNAs were transcribed in vitro with the T7 polymerase (mMessage mMachine Kit; Ambion Inc., Austin, TX, USA). cRNA was purified using a Qiagen RNeasy kit (Hilden, Germany). Five nanograms of cRNA was injected into each oocyte and used for voltage-clamp recording 1–2 days after injection. Sexually mature Xenopus leavis female frogs were kept and handled according to the institutional bioethics committee requirements. Whole-cell currents were recorded under two-electrode voltage clamp control using an OC-725C clamp amplifier (Warner Instruments, CT, USA). The intracellular electrodes were filled with 3 M KCl. Potassium currents were generated by de-polarizations to 10 mV for 1 s every 20 s with a membrane potential held at -80 mV. The bath solution was ND96, consisting of 96 mM NaCl, 2.0 mM KCl, 1.8 mM CaCl2, 1.0 mM MgCl2, and 5 mM HEPES (pH 7.5). CNF-Sr3 was diluted in ND96 and directly applied (3 μL) to the (static) bath chamber (30 μL). All electrophysiological measurements were performed at room temperature (~22 °C).
(§2) Measurements are reported as the mean ± SEM of three independent experiments.

human Kv1.4 channel = assay: Two-electrode voltage clamp of Kv1.4 expressed in Xenopus oocytes; settings: 10 µM
Protocol: as §1, §2

human Kv1.5 channel = assay: Two-electrode voltage clamp of Kv1.5 expressed in Xenopus oocytes; settings: 10 µM
Protocol: as §1, §2

human Kv1.6 channel = human Kv1.6 channel (Homo sapiens, UniProt P17658); assay: Two-electrode voltage clamp of Kv1.6 expressed in Xenopus oocytes
Protocol: as §1, §2

Shaker K^+ channel = settings: read-out: Kd on Shaker channel, sentence has no own ref, ref 1 is cited for CNF-Sr3 on Shaker; cited from earlier work
Eag = settings: cited from earlier work
hEag K^+ channel = settings: cited from earlier work
skinned Xenopus oocytes = settings: cited from earlier work

CSCC[C@H](NC(=O)[C@@H]1CCCN1C(=O)CNC(=O)[C@H](CO)NC(=O)[C@@H](NC(=O)[C@H](C)N)[C@@H](C)O)C(=O)NCC(=O)N[C@@H](Cc1c[nH]c2ccccc12)C(=O)N[C@@H](CC(C)C)C(=O)N1CCC[C@H]1C(=O)N[C@H](C(=O)N[C@@H](Cc1ccccc1)C(=O)N[C@@H](Cc1ccc(O)cc1)C(=O)N[C@@H](CCCNC(=N)N)C(=O)N[C@@H](Cc1ccccc1)C(N)=O)C(C)C [CNF-Sr3, Conorfamide-Sr3]
Inhibition of current, Kv1.3 (human Kv1.3 channel; 30 µM): almost all the current was inhibited irreversibly | Hill equation n, Kv1.3 (human Kv1.3 channel; concentration-response fit): 2.1 | Time to block the current, Kv1.3 compared with Kv1.6 (human Kv1.3 channel; time course of inhibition, Kv1.3 than Kv1.6): takes twice as much to block the current for Kv1.3 than Kv1.6 | Effect on Kv1.4 (human Kv1.4 channel): no significant effect | Effect on Kv1.5 (human Kv1.5 channel): no significant effect | Inhibition of current, Kv1.6 (human Kv1.6 channel; 30 µM): almost all the current was inhibited irreversibly | Affinity ratio Kv1.6 over Kv1.3 (human Kv1.6 channel; Kv1.6 with respect to Kv1.3, from IC50): 10 fold and ~ 10 fold | Hill equation n, Kv1.6 (human Kv1.6 channel; concentration-response fit): 1.08 | Kd (Shaker K^+ channel): 2700 nM | Effect on Eag (Eag): not to have any significant effect | Effect on hEag K^+ channel (hEag K^+ channel): no activity | Leak current (skinned Xenopus oocytes): does not induce a leak current
